Compound potency records, mixed from different reports. Data source: NIAID ChemDB in PubChem.

Shared fields: growth or infection tests; agent: Candida tropicalis; method: broth dilution; measure: MIC

Neighbouring rows are from separate reports. An empty or dashed field is not shown.

{"smiles": "Clc1ccc(COC(Cn2ccnc2)c2ccc(Cl)cc2Cl)c(Cl)c1", "strain or isolate": "Clinical isolates", "value": "0.06 µg/mL"}
{"smiles": "COc1cc(C=O)ccc1O", "value": "130 µg/mL"}
{"smiles": "C[C@@H](c1ncncc1F)[C@](O)(Cn1cncn1)c1ccc(F)cc1F", "strain or isolate": "Clinical isolates", "value": "0.03 µg/mL"}
{"smiles": "Cc1ccc(C(C)C)cc1", "value": "11300 µg/mL"}
{"smiles": "CC1(C)C=C2C3CCC4[C@@]5(C)CCC(O)C(C)(C)C5CC[C@@]4(C)[C@]3(C)CC[C@@]2(C(=O)O)CC1", "strain or isolate": "ATCC 750", "value": ">200 µg/mL"}
{"smiles": "CCC(C)CC(C)CCCCCCCCC(=O)N[C@H]1C[C@@H](O)[C@H](NCCN)NC(=O)[C@@H]2[C@@H](O)CCN2C(=O)[C@H]([C@H](O)CCN)NC(=O)[C@H]([C@H](O)[C@@H](O)c2ccc(O)cc2)NC(=O)[C@@H]2C[C@@H](O)CN2C(=O)[C@H]([C@@H](C)O)NC1=O", "strain or isolate": "1490A", "value": "0.5 µg/mL"}
{"smiles": "C[C@@H]1[C@H](O)[C@@H](C)/C=C/C=C/CC/C=C/C=C/C=C/C=C/C(O[C@H]2O[C@H](C)[C@@H](O)[C@H](N)[C@@H]2O)CC2O[C@](O)(CC(O)C(O)CCC(O)CC(O)CC(O)CC(=O)O[C@H]1C)CC(O)C2C(=O)O", "strain or isolate": "Clinical isolates", "value": "2 µg/mL"}
{"smiles": "C/C=C/c1ccc(O)c(OC)c1", "value": "550 µg/mL"}
{"smiles": "C=CCSS(=O)CC=C", "value": "640 µg/mL"}
{"smiles": "COc1cc(O)c2c(c1)OC(c1ccc(O)cc1)CC2=O", "strain or isolate": "ATCC 13803", "value": "630 µg/mL"}
{"smiles": "C/C=C/Cc1ccc(OC)cc1", "value": "1150 µg/mL"}
{"smiles": "C[C@@H]1[C@H](O)[C@@H](C)/C=C/C=C/CC/C=C/C=C/C=C/C=C/C(O[C@H]2O[C@H](C)[C@@H](O)[C@H](N)[C@@H]2O)CC2O[C@](O)(CC(O)C(O)CCC(O)CC(O)CC(O)CC(=O)O[C@H]1C)CC(O)C2C(=O)O", "strain or isolate": "CBS 94", "value": "3.9 µg/mL"}
{"smiles": "O=c1c(O)c(-c2ccc(O)c(O)c2)oc2cc(O)cc(O)c12", "strain or isolate": "ATCC 750", "value": "100 µg/mL"}
{"smiles": "Oc1ccccc1", "value": ">45260 µg/mL"}
{"smiles": "C[C@@H]1C=C2C3CCC4[C@@]5(C)CC[C@@H](O)C(C)(C)C5CC[C@@]4(C)[C@]3(C)CC[C@@]2(C(=O)O)CC1", "strain or isolate": "ATCC 750", "value": ">200 µg/mL"}
{"smiles": "c1ccc([Se][Se]c2ccccc2)cc1", "value": "32 µg/mL"}

2 of the rows above, restated:

smiles,strain or isolate,value
C[C@@H]1[C@H](O)[C@@H](C)/C=C/C=C/CC/C=C/C=C/C=C/C=C/C(O[C@H]2O[C@H](C)[C@@H](O)[C@H](N)[C@@H]2O)CC2O[C@](O)(CC(O)C(O)CCC(O)CC(O)CC(O)CC(=O)O[C@H]1C)CC(O)C2C(=O)O,Clinical isolates,2 µg/mL
Oc1ccccc1,-,>45260 µg/mL